Source: the NIST ThermoML archive (doi:10.1021/acs.jced.8b00595)

Assay: xn = mol fraction of the nth substance listed
Details: 101.3 kPa, Liquid; for viscosity: Concentric cylinders viscometry; for mass density: Vibrating tube method

Question: What does the source list for `O=S(=O)(F)[N-]S(=O)(=O)F.[Li+]` [lithium bis(fluorosulfonyl)imide] + COC(C)(C)C?
Answer: viscosity (273.15 K, x1 = 0.1001): 1.178 ± 0.063 mPa·s; viscosity (273.15 K, x1 = 0.2): 5.933 ± 0.13 mPa·s; viscosity (273.15 K, x1 = 0.2497): 19.89 ± 0.57 mPa·s; viscosity (273.15 K, x1 = 0.3002): 109.67 ± 4.2 mPa·s; viscosity (273.15 K, x1 = 0.3498): 775.58 ± 30 mPa·s; mass density (273.15 K, x1 = 0.1001): 882.7 ± 2.7 kg/m3; mass density (273.15 K, x1 = 0.2): 1011.1 ± 3.1 kg/m3; mass density (273.15 K, x1 = 0.2497): 1075.9 ± 3.2 kg/m3; mass density (273.15 K, x1 = 0.3002): 1144 ± 3.5 kg/m3; mass density (273.15 K, x1 = 0.3498): 1215 ± 3.7 kg/m3; mass density (273.15 K, x1 = 0.3995): 1271.1 ± 3.8 kg/m3; viscosity (288.15 K, x1 = 0.0999): 0.9 ± 0.046 mPa·s; viscosity (288.15 K, x1 = 0.2): 3.739 ± 0.059 mPa·s; viscosity (288.15 K, x1 = 0.2498): 11.37 ± 0.2 mPa·s; viscosity (288.15 K, x1 = 0.3001): 43.72 ± 0.97 mPa·s; viscosity (288.15 K, x1 = 0.3498): 227.54 ± 7.7 mPa·s; mass density (288.15 K, x1 = 0.0999): 867.2 ± 2.6 kg/m3; mass density (288.15 K, x1 = 0.2): 995.1 ± 3 kg/m3; mass density (288.15 K, x1 = 0.2498): 1061.6 ± 3.2 kg/m3; mass density (288.15 K, x1 = 0.3001): 1128.3 ± 3.4 kg/m3; mass density (288.15 K, x1 = 0.3498): 1198.9 ± 3.6 kg/m3; mass density (288.15 K, x1 = 0.3995): 1255.8 ± 3.8 kg/m3; viscosity (298.15 K, x1 = 0.1): 0.769 ± 0.039 mPa·s; viscosity (298.15 K, x1 = 0.1996): 2.932 ± 0.045 mPa·s; viscosity (298.15 K, x1 = 0.2494): 7.928 ± 0.14 mPa·s; viscosity (298.15 K, x1 = 0.3): 26.9 ± 0.5 mPa·s; viscosity (298.15 K, x1 = 0.349): 104.9 ± 2.4 mPa·s; mass density (298.15 K, x1 = 0.1): 856.8 ± 2.6 kg/m3; mass density (298.15 K, x1 = 0.1996): 983.3 ± 3 kg/m3; mass density (298.15 K, x1 = 0.2494): 1051.1 ± 3.2 kg/m3; mass density (298.15 K, x1 = 0.3): 1117.9 ± 3.4 kg/m3; mass density (298.15 K, x1 = 0.349): 1182.8 ± 3.6 kg/m3; mass density (298.15 K, x1 = 0.3994): 1246.5 ± 3.8 kg/m3; viscosity (308.15 K, x1 = 0.1001): 0.684 ± 0.036 mPa·s; viscosity (308.15 K, x1 = 0.2): 2.662 ± 0.042 mPa·s; viscosity (308.15 K, x1 = 0.2498): 6.002 ± 0.094 mPa·s; viscosity (308.15 K, x1 = 0.3001): 18.17 ± 0.3 mPa·s; viscosity (308.15 K, x1 = 0.3498): 67.27 ± 1.3 mPa·s; mass density (308.15 K, x1 = 0.1001): 847 ± 2.6 kg/m3; mass density (308.15 K, x1 = 0.2): 980.1 ± 3 kg/m3; mass density (308.15 K, x1 = 0.2498): 1041.2 ± 3.1 kg/m3; mass density (308.15 K, x1 = 0.3001): 1108.5 ± 3.3 kg/m3; mass density (308.15 K, x1 = 0.3498): 1178.2 ± 3.6 kg/m3; mass density (308.15 K, x1 = 0.3995): 1235.4 ± 3.7 kg/m3

± gives the expanded uncertainty stated by the source.
